Assays:
[1] = refractive index (Na D-line) (dimensionless); xn = mol fraction of the nth substance listed; settings: 298.15 K, 101 kPa, Liquid, Standard Abbe refractometry
[2] = xn = mol fraction of the nth substance listed; settings: 298.15 K, 101 kPa, Liquid, Vibrating tube method
[3] = refractive index (Na D-line) (dimensionless); settings: 298.15 K; 101.33 kPa; Liquid; Standard Abbe refractometry
[4] = 298.15 K; 101.33 kPa; Liquid; Vibrating tube method

CCCCOP(=O)(OCCCC)OCCCC [tributyl phosphate] + CCCCCCCCCCCC
Settings | mass density, [2] [kg/m3] | refractive index, [1]
x1 = 0.0497 | 758.4 | 1.4193
x1 = 0.0999 | 771.06 | 1.4192
x1 = 0.2003 | 796.01 | 1.4192
x1 = 0.3001 | 820.28 | 1.4194
x1 = 0.4001 | 843.97 | 1.4196
x1 = 0.5 | 867.06 | 1.4199
x1 = 0.6 | 889.46 | 1.4204
x1 = 0.7003 | 911.2 | 1.4208
x1 = 0.8001 | 932.09 | 1.4212
x1 = 0.9004 | 952.57 | 1.4217
x1 = 0.9503 | 962.59 | 1.4221

CCCCOP(=O)(OCCCC)OCCCC [tributyl phosphate]
Settings | mass density [kg/m3] | refractive index
[3] | – | 1.4224
[4] | 972.69 | –

CCCCOP(=O)(OCCCC)OCCCC [tributyl phosphate] + CCCCCCCCCCCCO
Settings | mass density, [2] [kg/m3] | refractive index, [1]
x1 = 0.05 | 838.29 | 1.4392
x1 = 0.1002 | 846.1 | 1.4377
x1 = 0.2 | 861.3 | 1.4352
x1 = 0.3 | 876.21 | 1.4329
x1 = 0.4 | 890.84 | 1.4308
x1 = 0.5002 | 905.19 | 1.429
x1 = 0.6002 | 919.33 | 1.4274
x1 = 0.6997 | 933.02 | 1.4259
x1 = 0.8001 | 946.59 | 1.4246
x1 = 0.9004 | 959.86 | 1.4234
x1 = 0.9502 | 966.27 | 1.4229

CCCCOP(=O)(OCCCC)OCCCC [tributyl phosphate] + CCCCCCCCCCC
Settings | mass density, [2] [kg/m3] | refractive index, [1]
x1 = 0.05 | 751.14 | 1.415
x1 = 0.0999 | 765.09 | 1.4152
x1 = 0.2001 | 792.4 | 1.4158
x1 = 0.2999 | 818.47 | 1.4163
x1 = 0.3999 | 843.46 | 1.417
x1 = 0.5001 | 867.4 | 1.4178
x1 = 0.5998 | 890.24 | 1.4188
x1 = 0.6997 | 912.19 | 1.4197
x1 = 0.7999 | 933.33 | 1.4206
x1 = 0.8998 | 953.53 | 1.4216
x1 = 0.9503 | 963.33 | 1.4219

— the NIST ThermoML archive (doi:10.1016/j.fluid.2013.01.002)
